Source: PubChem BioAssay AID2451 (National Center for Advancing Translational Sciences (NCATS), 2010)
This is a selection; strong and weak results do not stand in their true shares. Inconclusive results are not listed. Entries that show only a call come without a potency. Activity calls are given as the source filed them. The call rests on the fitted dose curve; in most records, active means well fitted inhibition curve with a large enough effect; inconclusive means small, poorly fitted or top-dose-only effect, or effect the other way; inactive means flat fitted curve, though single readings scatter.

Sequences of proteins named here, by UniProt entry; tags and fusion partners are left off.
UniProt A8B2U2, whole entry: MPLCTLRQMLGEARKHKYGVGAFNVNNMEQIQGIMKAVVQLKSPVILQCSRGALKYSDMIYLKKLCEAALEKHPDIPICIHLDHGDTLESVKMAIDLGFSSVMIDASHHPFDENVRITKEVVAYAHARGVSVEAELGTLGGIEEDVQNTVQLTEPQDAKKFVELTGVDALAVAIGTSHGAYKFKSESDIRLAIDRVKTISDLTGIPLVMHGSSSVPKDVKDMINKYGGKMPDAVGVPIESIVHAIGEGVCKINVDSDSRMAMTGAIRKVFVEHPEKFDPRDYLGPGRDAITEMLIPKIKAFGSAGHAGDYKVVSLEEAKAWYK

target: Fructose-bisphosphate aldolase (Giardia intestinalis (strain ATCC 50803 / WB clone C6)) (UniProt A8B2U2); assay: qHTS Assay for Inhibitors of Fructose-1,6-bisphosphate Aldolase from Giardia Lamblia; conditions: purified Giardia FBPA; series mostly up to 59.6 µM; further: nearly all actives have a fitted effect of over 55% in size
Potency means the concentration at half of the fitted maximal effect.

SMILES | Potency
CSc1ccccc1C(=O)NCC1(N2CCCCC2)CCCCC1 | inactive
COc1ccc(C(=O)NCC2(N3CCCCC3)CCCCC2)c(OC)c1OC | inactive
CC(C)(C)OC(=O)N1CCC(N(C(=O)c2ccccc2)c2ccc(F)cc2)CC1 | inactive
COc1ccc(C(=O)NCC2(N3CCCCC3)CCCCC2)cc1 | inactive
O=C(NCC1(N2CCCCC2)CCCCC1)c1ccc(=O)[nH]c1 | inactive
O=C(OC1CN2CCC1CC2)C1c2ccccc2Oc2ccccc21 (stereo not given) | inactive
N#CC1(Nc2ccccc2)CCN(Cc2ccccc2)CC1 | inactive
CCOC(=O)N1CCC(Nc2ccc(OC)cc2)CC1 | inactive
Cc1cc(C)cc(N(C(=O)c2ccccc2)C2CCN(C(=O)OC(C)(C)C)CC2)c1 | inactive
O=C(NCC1(N2CCOCC2)CCCCC1)c1cc2ccccc2o1 | inactive
CCOC(=O)N1CCC(Nc2ccc(F)cc2)CC1 | inactive
COc1ccc(NC2CCN(CCc3ccccc3)CC2)c(OC)c1 | inactive
O=C(NCC1(N2CCCCC2)CCCCC1)c1ccc(F)cc1 | inactive
COc1cc(C(=O)NCC2(N(C)C)CCCCC2)ccc1OC(F)F | inactive
N#CC1(Nc2ccccc2)CCN(CCc2ccccc2)CC1 | inactive
O=C(NCC1(N2CCCCC2)CCCCC1)c1cccc([N+](=O)[O-])c1 | inactive
O=C(NCC1(N2CCCCC2)CCCCC1)c1ccc(OC(F)F)cc1 | inactive
O=C(NCC1(N2CCOCC2)CCCCC1)c1cc(=O)[nH]c2ccccc12 | inactive
COc1cc(C(=O)NCC2(N3CCCCC3)CCCCC2)ccc1OC(F)F | inactive
COc1ccc(NC2CCN(C(=O)OC(C)(C)C)CC2)cc1 | inactive
CN1CCN(CCOC(=O)C(O)(c2ccccc2)c2ccccc2)CC1 | inactive
O=C(NCC1(N2CCCCC2)CCCCC1)c1cccc(C(F)(F)F)c1 | inactive
COc1cc(OC)c(C(=O)NCC2(N(C)C)CCCCC2)cc1OC | inactive
CC(C)c1ccc(NC2CCN(C(=O)OC(C)(C)C)CC2)cc1 | inactive
CN(C)c1cccc(C(=O)NCC2(N3CCCCC3)CCCCC2)c1 | inactive

SMILES | Potency
O=[N+]([O-])c1cc([N+](=O)[O-])c(OC2CCCCC2O)c([N+](=O)[O-])c1 (stereo not given) | inactive
COc1ccc(CN(CCCl)CCCl)cc1Cl | inactive
CCCOc1ccc(C(=O)NCC2(N(C)C)CCCCC2)cc1OC | inactive
O=C(OC1CN2CCC1CC2)c1ccc([N+](=O)[O-])cc1 (stereo not given) | inactive
COc1ccc(C(=O)NCC2(N3CCOCC3)CCCCC2)cc1OC | inactive
O=C(O)c1cccc(Nc2c([N+](=O)[O-])cc([N+](=O)[O-])cc2[N+](=O)[O-])c1 | inactive
O=C(OC1CN2CCC1CC2)C1c2ccccc2C=Cc2ccccc21 (stereo not given) | inactive
N/C(=N\O)c1c(N)no[n+]1[O-] | inactive
CCOC(=O)C(CC)C1=NC(C)(C)Cc2ccccc21.O=[N+]([O-])c1cc([N+](=O)[O-])c(O)c([N+](=O)[O-])c1 (stereo not given) | inactive
N#Cc1ccc(C(=O)NCC2(N3CCCCC3)CCCCC2)cc1 | inactive
CC(C)(C)OC(=O)N1CCC(N(C(=O)c2ccccc2)c2ccc(Cl)cc2)CC1 | inactive
CN(C)C1(CNC(=O)c2cccc(C#N)c2)CCCCC1 | inactive
CCCN1CCC(Nc2cc(OC)cc(OC)c2)CC1 | active: 28.2 µM
c1ccc(CN2CCC(Nc3ccccc3)CC2)cc1 | inactive
CN(C)c1ccc(C(=O)NCC2(N3CCCCC3)CCCCC2)cc1 | inactive
CCN1CCC(Nc2cccc(F)c2)CC1 | inactive
O=C(O)C1(Nc2ccccc2)CCN(Cc2ccccc2)CC1 | inactive
CC(C)(C)OC(=O)N1CCC(Nc2ccccc2)CC1 | inactive
CCCOc1ccc(C(=O)NCC2(N(C)C)CCCCC2)cc1 | inactive
CCOc1ncccc1C(=O)NCC1(N2CCOCC2)CCCCC1 | inactive
CN1CCC(Nc2ccc(Cl)cc2)CC1 | active: 20 µM
CCCOc1ccc(C)cc1CN(CCCl)CCCl | inactive
COc1cccc(C(=O)N(c2cc(C)cc(C)c2)C2CCN(C(=O)OC(C)(C)C)CC2)c1 | inactive
COc1cc(OC)cc(C(=O)NCC2(N3CCOCC3)CCCCC2)c1 | inactive
CCC(CO)(C(=O)OC1CN2CCC1CC2)c1ccccc1 (stereo not given) | inactive
